From US12545673B2, “Imidazopyridine derivative and pharmaceutical composition comprising same as active ingredient” (TSD LIFE SCIENCES CO., LTD., priority 2019, dated 2026) come the findings set out here.

Where only a bound is given, the exact number is not on record here.

This experiment deals with influenza virus PR8. Description: Antiviral effect evaluation 1, influenza-infected MDCK (MTT), PR8. The class given is cell-based.
For `CCS(=O)(=O)N1CCC(Nc2c(Br)cnc3nc(-c4cc(C)n(-c5cccc(NS(C)(=O)=O)c5)c4C)[nH]c23)C1` (stereo not drawn), the Selectivity index: CC50/EC50 PR8 is > 1.

With `CCS(=O)(=O)N1CCC(Nc2c(Br)cnc3nc(-c4cc(C)n(-c5ccc(OCCN6CCOCC6)cc5)c4C)[nH]c23)C1` (stereo not drawn), the Selectivity index: CC50/EC50 PR8 is > 9.

For the molecule `CCS(=O)(=O)N1CCC(Nc2c(Br)cnc3[nH]c(-c4cc(C)n(-c5cc(NS(C)(=O)=O)ccc5C)c4C)nc23)C1` (stereo not drawn), the Selectivity index: CC50/EC50 PR8 is > 3.1.
